This is an account of results in paper PMC4039064, “An inhibitor-driven study for enhancing the selectivity of indirubin derivatives towards leishmanial Glycogen Synthase Kinase-3 over leishmanial cdc2-related protein kinase 3” (Parasites & Vectors, 2014).

Protein sequences, listed by entry. Tags and fused reporters are not part of them. Residues count along the entry.
UniProt O15851, 1-311: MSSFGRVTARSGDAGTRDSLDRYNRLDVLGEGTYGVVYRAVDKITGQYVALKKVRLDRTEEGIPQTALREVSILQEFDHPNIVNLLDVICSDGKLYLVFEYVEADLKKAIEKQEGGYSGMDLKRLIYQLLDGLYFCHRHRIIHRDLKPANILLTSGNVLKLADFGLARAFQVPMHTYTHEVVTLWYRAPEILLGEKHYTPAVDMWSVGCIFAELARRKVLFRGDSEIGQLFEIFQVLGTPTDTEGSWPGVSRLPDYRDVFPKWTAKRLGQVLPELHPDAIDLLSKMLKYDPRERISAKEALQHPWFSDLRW
UniProt A6N857, 1-355: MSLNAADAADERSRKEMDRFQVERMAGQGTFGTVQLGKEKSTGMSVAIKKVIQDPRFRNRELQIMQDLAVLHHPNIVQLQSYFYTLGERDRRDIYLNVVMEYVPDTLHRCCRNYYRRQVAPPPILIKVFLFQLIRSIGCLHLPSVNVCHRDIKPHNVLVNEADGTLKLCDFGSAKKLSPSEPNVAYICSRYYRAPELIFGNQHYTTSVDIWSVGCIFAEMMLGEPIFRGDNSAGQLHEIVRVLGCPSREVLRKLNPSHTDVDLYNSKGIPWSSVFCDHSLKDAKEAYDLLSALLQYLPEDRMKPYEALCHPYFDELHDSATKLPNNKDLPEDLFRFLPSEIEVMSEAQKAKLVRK

The IC50 is the concentration needed to halve the response being measured. A lower IC50 goes with higher potency.

Assay [1] concerns the target LCRK3 (cdc2-related protein kinase 3) (Leishmania mexicana, UniProt O15851). The assay is described as follows: luminescent kinase assay (Promega). The assay is classed as biochemical. To be noted: histone H1 substrate, ATP.
Assay [2] has as its target LGSK-3 (leishmanial Glycogen Synthase Kinase-3 short) (Leishmania donovani, UniProt A6N857). The assay is described as follows: luminescent kinase assay (Promega). Type of assay: biochemical. The following applies: GS-1 peptide substrate, ATP.

For the molecule `O=C1Nc2c(cccc2C(F)(F)F)C1=C1Nc2ccccc2C1=NO`, the IC50 in assay [1] and in assay [2] was over 3.33 µM each time.
